Anti-infective test results gathered from many reports (values: NIAID ChemDB through PubChem).

Shared fields: tests in culture; agent: Cowpox virus; endpoint: EC50

Blank or dashed fields: not listed here.

structure | strain | cells | value
CCCCCCCCCCCCCCCCOCCCOP(=O)(O)COCCn1cnc2c(=O)[nH]c(N)nc21 | Brighton | HFF | 0.12 µM
Nc1ccn(C[C@@H](CO)OCP(=O)(O)O)c(=O)n1 | Brighton | VERO | 53 µM
Cc1cc(C)nc(NS(=O)(=O)c2ccc(N=C3C(=O)Nc4ccc(Cl)cc43)cc2)n1 | - | HFF | 200 µM
Nc1nc(=O)n([C@@H]2O[C@H](CO)[C@@H](O)[C@@H]2F)cc1I | Brighton | VERO | 39 µM
Cc1cc(C)nc(NS(=O)(=O)c2ccc(N=C3C(=O)N(CN4CCNCC4)c4ccccc43)cc2)n1 | - | HFF | >60 µM
Nc1ncnc2c1ncn2C[C@@H](CO)OCP(=O)(O)O | - | LLC-MK2 | 7.7 µg/mL
CC(=O)N[C@H]1C[C@@H](n2cnc3c(N)ncnc32)[C@H](O)[C@@H]1O | - | HFF | >100 µg/mL
Nc1nccc2c1ncn2[C@@H]1C=C(CO)[C@@H](O)[C@H]1O | - | LLC-MK2 | >100 µg/mL
Nc1ncnc2c1nc(Cl)n2[C@@H]1O[C@H](CO)[C@@H](O)[C@H]1O | Brighton | VERO | >100 µM
Cc1cc(C)nc(NS(=O)(=O)c2ccc(N=C3C(=O)Nc4ccc(Br)cc43)cc2)n1 | - | HFF | 112 µM
O=c1[nH]c(=O)n([C@@H]2O[C@H](CO)[C@@H](O)[C@@H]2F)cc1I | Brighton | C1271 | 0.16 µM
O=c1[nH]cnc2c1ncn2[C@@H]1C=C(CO)[C@@H](O)[C@H]1O | CPX | MK2 | >100 µg/mL
Nc1ccn(C[C@@H](CO)OCP(=O)(O)O)c(=O)n1 | - | LLC-MK2 | 1.2 µg/mL
Nc1nc(=O)n([C@@H]2C=C(CO)[C@@H](O)[C@H]2O)cc1F | CPX | MK2 | 0.43 µg/mL
O=c1[nH]c(=O)n([C@H]2C[C@H](O)[C@@H](CO)O2)cc1I | Brighton | C1271 | 0.8 µM
N=c1c2ncn([C@@H]3O[C@H](CO)[C@@H](O)[C@H]3O)c2ncn1OCc1cc(F)cc(F)c1 | - | VERO | 0.71 µg/mL

2 of the rows above, restated:

structure	strain	cells	value
O=c1[nH]cnc2c1ncn2[C@@H]1C=C(CO)[C@@H](O)[C@H]1O	CPX	MK2	>100 µg/mL
N=c1c2ncn([C@@H]3O[C@H](CO)[C@@H](O)[C@H]3O)c2ncn1OCc1cc(F)cc(F)c1	-	VERO	0.71 µg/mL

Rows are shuffled and stem from different studies. ECn is the concentration giving n% inhibition of infection, replication or growth.